Compound potency records, mixed from different reports. Data source: NIAID ChemDB in PubChem.

Shared fields: whole-cell or culture tests; species: Mycobacterium tuberculosis

MIC50, MIC90 and the like: level of inhibition, or share of isolates inhibited. MIC bound comes from a single tested concentration. Neighbouring rows are from separate reports. An empty or dashed field is not shown. Inhibition is in % at the dose shown (toxicity tests: loss of growth or viability). a–b is a range or a potency band.

structure	mutations	tested at	strain or isolate	endpoint	read by	result
O=c1cc(-c2ccccc2)oc2cc(O)cc(O)c12		12.5 µg/mL	H37Rv	inhibition	BACTEC	51%
CS(C)=O.CS(C)=O.CS(C)=O.CS(C)=O.[Cl][Ru][Cl]			H37Rv	MIC	resazurin	>6.25 µg/mL
O=C(NCc1ccccc1F)c1nnc(-c2ccccn2)[nH]c1=O			H37Rv	MIC		32 µg/mL
C=C1C(=O)O[C@H]2[C@H]1[C@H](OC(=O)C=C(C)C)CC1=C[C@H](C[C@]3(C)O[C@H]23)OC1=O		12.5 µg/mL	H37Rv	inhibition	BACTEC	1%
O=C(N/N=C(\c1nc2ccc([N+](=O)[O-])cc2[nH]c1=O)C(O)c1ccc([N+](=O)[O-])cc1)c1ccncc1	KatG S315T			MIC	visual reading / absorbance	50 µM
N=c1nc(N)nc2c3ccccc3nnn12			H37Rv	MIC bound	BACTEC	>12.5 µg/mL
COc1ccc(C(N)=Nc2nc(-c3ccccn3)cc3ccccc23)cc1			H37Rv	MIC		0.5 µg/mL
COC(=O)NC1=NC(C(=O)c2ccc(Cl)cc2)CS1			H37Rv	MIC		0.75 µg/mL
CC(C)C1=CC2=CCC3C(C)(CN)CCCC3(C)C2CC1CCN		12.5 µg/mL	H37Rv	inhibition	BACTEC	72%
O=[N+]([O-])c1ccc(Oc2cnc3nc(-c4cccc(Cl)c4)[nH]c3c2)cc1			H37Rv	MIC80	resazurin / absorbance	1.8 µM
COc1ccc2c(Cc3ccccc3)c3[n+](cc2c1OC)CCc1cc2c(cc1-3)OCO2			H37Rv	MIC	broth dilution / turbidity	16 µg/mL
O=C(NCc1ccc(Cl)c(Cl)c1)c1nnc(-c2ccccn2)[nH]c1=O			H37Rv	MIC		>32 µg/mL
CN(C)C/C=C(/c1ccc(-c2ccc(Br)cc2)cc1)c1cccs1			ATCC 25177	MIC		20.2 µM
Cc1ccc(CNC(=O)c2nnc(-c3ccccn3)[nH]c2=O)cc1			H37Rv	MIC		32 µg/mL
COc1ccc(N2CCN(Cc3ccc([N+](=O)[O-])o3)CC2)cc1	Isoniazid- and rifampicin-resistant		MDR	MIC	resazurin	>25.2 µM
O=C(O[C@H]1CCN2C[C@H]3C[C@H](CN4C(=O)CCC[C@H]34)[C@@H]2C1)c1ccc(O)cc1		12.5 µg/mL	H37Rv	inhibition	BACTEC	17%
COc1ccc(CNC(=O)c2nnc(-c3ccccn3)[nH]c2=O)cc1			H37Rv	MIC		>32 µg/mL
CCc1cc(C(N)=S)ccn1			2 lab strains (TH1314-susceptible)	MIC		2.5 µg/mL
CO[C@H]1/C=C/O[C@@]2(C)Oc3c(C)c(O)c4c(O)c(c(C=Nc5ccc(C)cc5)c(O)c4c3C2=O)NC(=O)/C(C)=C\C=C\[C@H](C)[C@H](O)[C@@H](C)[C@@H](O)[C@@H](C)[C@H](OC(C)=O)[C@@H]1C			H37Rv	MIC		>5 µg/mL
Cc1cccc(-c2nc3ncc(Oc4ccc([N+](=O)[O-])cc4)cc3[nH]2)c1			H37Rv	MIC80	resazurin / absorbance	1.5 µM
Cc1c2cnccc2c(C)c2c1c1ccccc1n2CCCCCC#N			H37Rv	MIC bound	resazurin	<6.25 µg/mL
CN1CCCCC1CCN1c2ccccc2Sc2ccc(S(C)=O)cc21			22 isolates	MIC		2 µg/mL
CN1CC(O)C2=CC(=O)C(=O)C=C21		12.5 µg/mL	H37Rv	inhibition	BACTEC	13%
CCOC(=O)NC1=NC(C(=O)c2ccc(OC)cc2)CS1			H37Rv	MIC		>50 µg/mL
CN(C)CCCN1c2ccccc2Sc2ccc(Cl)cc21			21 isolates (multidrug resistance)	MIC		4 µg/mL
O=C(NCc1ccccc1)c1nnc(-c2ccccn2)[nH]c1=O			H37Rv	MIC		>32 µg/mL
COC(=O)NC1=NC(C(=O)c2ccc(Br)cc2)CS1			H37Rv	MIC		>50 µg/mL
CO[C@H]1/C=C/O[C@@]2(C)Oc3c(C)c(O)c4c(O)c(c5c(c4c3C2=O)NC2(CCN(CC(C)C)CC2)N=5)=NC(=O)/C(C)=C\C=C\[C@H](C)[C@H](O)[C@@H](C)[C@@H](O)[C@@H](C)[C@H](OC(C)=O)[C@@H]1C			N-2	MIC		1.8 µg/mL
CCCCCCOc1ccc2c(c1)-c1ccccc1C2N1CCN(C(=O)c2ccccc2)CC1			H37Rv	MIC	broth dilution	>22 µM
CO[C@H]1/C=C/O[C@@]2(C)Oc3c(C)c(O)c4c(O)c(c(C=Nc5ccncc5)c(O)c4c3C2=O)NC(=O)/C(C)=C\C=C\[C@H](C)[C@H](O)[C@@H](C)[C@@H](O)[C@@H](C)[C@H](OC(C)=O)[C@@H]1C			H37Rv	MIC		2 µg/mL
Cc1c(N)nc([C@H](CC(N)=O)NC[C@@H](N)C(N)=O)nc1C(=O)N[C@H](C(=O)NC(C)C(O)CC(=O)NC(C(=O)NC(OC1OC(C)C(N)C(O)C1O)C(O)c1nc(-c2nc(C(=O)NCCCCN)cs2)cs1)[C@H](C)O)C(OC1OC(CO)C(O)C(O)C1OC1OC(CO)C(O)C(OC(N)=O)C1O)c1cnc[nH]1.Cl.Cl.Cl.Cl			CS-R	MIC		0.1 µg/mL
COc1ccc2c(c1)-c1ccccc1C2N1CCN(C(=O)c2ccccc2)CC1			H37Rv	MIC	broth dilution	>26 µM
COc1cc(C(=O)NCC(=O)NN)cc(OC)c1OC		12.5 µg/mL	H37Rv	inhibition	BACTEC	10%
CO/N=C(\C(=O)N[C@@H]1C(=O)N2C(C(=O)O)=C(COC(C)=O)CS[C@H]12)c1csc(N)n1			H37Rv	MIC	resazurin	2 µg/mL
Cc1nc2ccc(Br)cc2c(=O)n1NC(=O)c1cc(-c2ccccc2)nc2ccccc12		6.25 µg/mL	H37Rv	inhibition	resazurin	6%
CC(C)OC(=O)c1cccnc1-c1ncccc1C(=O)OC(C)C			H37Rv	MIC	resazurin	>6.25 µg/mL
CO[C@H]1/C=C/O[C@@]2(C)Oc3c(C)c(O)c4c(O)c(c(/C=N/O)c(O)c4c3C2=O)NC(=O)/C(C)=C\C=C\[C@H](C)[C@H](O)[C@@H](C)[C@@H](O)[C@@H](C)[C@H](OC(C)=O)[C@@H]1C			H37Rv	MIC		5 µg/mL
CC(=O)Nc1ccc(/C=N/Nc2nc3ccccc3s2)cc1		12.5 µg/mL	H37Rv	inhibition	BACTEC	5%
COc1cccc(CNC(=O)c2nnc(-c3ccccn3)[nH]c2=O)c1			H37Rv	MIC		32 µg/mL
NNC(=O)c1ccncc1	KatG S315T			MIC	visual reading / absorbance	1.6 µM
Oc1cc(O)c2c(c1)O[C@H](c1ccc(O)c(O)c1)[C@H](O)[C@H]2c1c(O)cc(O)c2c1O[C@H](c1ccc(O)c(O)c1)[C@H](O)C2		12.5 µg/mL	H37Rv	inhibition	BACTEC	7%
Cc1ccc(-c2nc3ncc(Oc4ccc([N+](=O)[O-])cc4)cc3[nH]2)cc1			H37Rv	MIC80	resazurin / absorbance	1.3 µM
CCOC(=O)CCCCCCCCCCCC[C@H]1C=CCC1			H37Rv	MIC	GFP	16.8 µM
CO[C@H]1/C=C/O[C@@]2(C)Oc3c(C)c(O)c4c(O)c(c(/C=N/n5cnnc5)c(O)c4c3C2=O)NC(=O)/C(C)=C\C=C\[C@H](C)[C@H](O)[C@@H](C)[C@@H](O)[C@@H](C)[C@H](OC(C)=O)[C@@H]1C			H37Rv	MIC		>5 µg/mL
CO[C@H]1/C=C/O[C@@]2(C)Oc3c(C)c(O)c4c(O)c(c(/C=N/N5CCN(C)CC5)c(O)c4c3C2=O)NC(=O)/C(C)=C\C=C\[C@H](C)[C@H](O)[C@@H](C)[C@@H](O)[C@@H](C)[C@H](OC(C)=O)[C@@H]1C			ATCC 27294	MIC		0.036 µM
CCOC(=O)NC1=NC(C(=O)c2ccccc2)CS1			H37Rv	MIC		0.4 µg/mL
COc1ccc2cc3[n+](cc2c1O)CCc1cc2c(cc1-3)OCO2			H37Rv	MIC	broth dilution / turbidity	>16 µg/mL
O=C1CN(Br)C(=O)N1Br		12.5 µg/mL	H37Rv	inhibition	BACTEC	0%
Cc1cccc(C(N)=Nc2nc(-c3ccccn3)cc3ccccc23)c1			H37Rv	MIC		0.25 µg/mL
COc1ccc2c(Cc3ccc(Cl)cc3Cl)c3[n+](cc2c1OC)CCc1cc2c(cc1-3)OCO2			H37Rv	MIC	broth dilution / turbidity	8 µg/mL
COc1cc(/C=N/NC(=O)c2c[nH]c3ccc(Cl)cc3c2=O)cc(OC)c1OC			RCMB 010126	MIC	resazurin	6.24 µg/mL
O=C(NN1C(=O)CS(=O)(=O)C1c1ccc(C(F)(F)F)cc1)c1ccncc1	KatG *741R			MIC	visual reading / absorbance	25 µM
CCOC(=O)NC1=NC(C(=O)c2ccc(C)cc2)CS1			H37Rv	MIC		0.2 µg/mL
C=C(C)C1CC=C(C)/C(=N/NC(=O)c2cccnc2)C1	KatG G285V		H37Rv	MIC	visual reading / absorbance	50 µM
O=C(O)c1ccccc1O		40 µM	7800	inhibition		4%
O=C(NCc1ccc(Cl)cc1Cl)c1nnc(-c2ccccn2)[nH]c1=O			H37Rv	MIC		>32 µg/mL
CCCCC/C(CC1NC(=S)NC1=O)=N\NC(=O)c1ccncc1	KatG S315R		H37Rv	MIC	visual reading / absorbance	12.5 µM
C[C@@H](O)[C@H]1C(=O)N2C(C(=O)O)=C([C@H]3CCCO3)S[C@H]12			H37Rv	MIC	resazurin	4 µg/mL
COc1cccc(OC)c1-c1nc2ncc(Oc3ccc([N+](=O)[O-])cc3)cc2[nH]1			H37Rv	MIC80	resazurin / absorbance	0.5 µM
CN(C)CCCN1c2ccc(O)cc2Sc2ccc(Cl)cc21			H37Rv	MIC bound	BACTEC	≤12.5 µg/mL
O=[N+]([O-])c1ccc(Oc2cnc3nc(-c4cccc(Br)c4)[nH]c3c2)cc1			H37Rv	MIC80	resazurin / absorbance	0.7 µM
CC(C)COC(=O)c1cccnc1-c1ncccc1C(=O)OCC(C)C			H37Rv	MIC	resazurin	>6.25 µg/mL
CC1(C)S[C@@H]2[C@H](NC(=O)Cc3ccccc3)C(=O)N2[C@H]1C(=O)O			H37Rv	MBC	resazurin	256 µg/mL
CO[C@H]1/C=C/O[C@@]2(C)Oc3c(C)c(O)c4c(O)c(c(/C=N/OCCN5CCOCC5)c(O)c4c3C2=O)NC(=O)/C(C)=C\C=C\[C@H](C)[C@H](O)[C@@H](C)[C@@H](O)[C@@H](C)[C@H](OC(C)=O)[C@@H]1C			H37Rv	MIC		0.5 µg/mL
COc1ccc2c(c1)N(C[C@H](C)CN(C)C)c1ccccc1S2				MIC		10 µg/mL
S=C1N(CN2CCCCC2)CCN1CN1CCCCC1			H37Rv	MIC bound	BACTEC	>12.5 µg/mL
CC[C@@H](CO)NCCN[C@@H](CC)CO			mc(^2)7000	MIC99	agar	1–2.5 µg/mL
CCOC(=O)NC1=NC(C(=O)c2ccc(Cl)cc2)CS1			H37Rv	MIC		>50 µg/mL
C=CC1CN2CCC1CC2C(=O)c1ccnc2ccc(OC)cc12			H37Rv	MIC bound	BACTEC	>128 µg/mL
O=[N+]([O-])c1ccc(Oc2cnc3nc(-c4ccc(F)cc4O)[nH]c3c2)cc1			H37Rv	MIC80	resazurin / absorbance	1.5 µM
Cc1nc(Nc2nc3ccccc3[nH]2)nc(Cl)c1CCCl			H37Rv	MIC bound	BACTEC	>6.25 µg/mL
C=CCc1c2[n+](cc3c(OC)c(OC)ccc13)CCc1cc3c(cc1-2)OCO3			H37Rv	MIC	broth dilution / turbidity	>16 µg/mL
Cn1c(=O)c2c(c3cc(O)ccc31)OC(C(C)(C)O)C2		12.5 µg/mL	H37Rv	inhibition	BACTEC	1%
O=C(N/N=C/c1ccc(Cl)cc1Cl)c1c[nH]c2cc(Cl)ccc2c1=O			RCMB 010126	MIC	resazurin	99.84 µg/mL
NCCCC[C@H](NC(=O)[C@H](Cc1cnc[nH]1)NC(=O)CN)C(=O)O		12.5 µg/mL	H37Rv	inhibition	BACTEC	0%
NC(=Nc1ccc2ccc3cccnc3c2n1)c1ccccn1			H37Rv	MIC		4 µg/mL
COc1cc(/C=N/NC(=O)c2cccs2)cc(OC)c1OC			H37Rv	MIC bound	BACTEC	>12.5 µg/mL
COCC1=C(C(=O)O)N2C(=O)C(NC(=O)/C(=N/OC)c3csc(N)n3)C2SC1			H37Rv	MIC	resazurin	>128 µg/mL

A second listing of 7 rows from above:

structure | mutations | tested at | strain or isolate | endpoint | read by | result
C=C1C(=O)O[C@H]2[C@H]1[C@H](OC(=O)C=C(C)C)CC1=C[C@H](C[C@]3(C)O[C@H]23)OC1=O |  | 12.5 µg/mL | H37Rv | inhibition | BACTEC | 1%
CN(C)C/C=C(/c1ccc(-c2ccc(Br)cc2)cc1)c1cccs1 |  |  | ATCC 25177 | MIC |  | 20.2 µM
CO/N=C(\C(=O)N[C@@H]1C(=O)N2C(C(=O)O)=C(COC(C)=O)CS[C@H]12)c1csc(N)n1 |  |  | H37Rv | MIC | resazurin | 2 µg/mL
Cc1c(N)nc([C@H](CC(N)=O)NC[C@@H](N)C(N)=O)nc1C(=O)N[C@H](C(=O)NC(C)C(O)CC(=O)NC(C(=O)NC(OC1OC(C)C(N)C(O)C1O)C(O)c1nc(-c2nc(C(=O)NCCCCN)cs2)cs1)[C@H](C)O)C(OC1OC(CO)C(O)C(O)C1OC1OC(CO)C(O)C(OC(N)=O)C1O)c1cnc[nH]1.Cl.Cl.Cl.Cl |  |  | CS-R | MIC |  | 0.1 µg/mL
Cc1nc(Nc2nc3ccccc3[nH]2)nc(Cl)c1CCCl |  |  | H37Rv | MIC bound | BACTEC | >6.25 µg/mL
COc1cc(/C=N/NC(=O)c2cccs2)cc(OC)c1OC |  |  | H37Rv | MIC bound | BACTEC | >12.5 µg/mL
COC(=O)NC1=NC(C(=O)c2ccc(Br)cc2)CS1 |  |  | H37Rv | MIC |  | >50 µg/mL